# Reference: patent US20190352343A1 (AUCKLAND UNISERVICES, published 2019)
# Target: MBP3L-Cpe0147-T450S^439-563 (Clostridium perfringens)
# Assay: SDS-PAGE time course of ester bond formation
substance,measurement,value
Cpe0147^565-587-eGFP fusion,percent conversion at ~1 h,> 50%
